Test results reported in patent publication EP4843576A2, “METHODS FOR TREATING HCV” (dated 2026).

Columns and labels:
[1] = test system: resistance-associated variants in GT 1a (H77); experiment: Activity against resistance-associated variants, GT 1a
[2] = test system: replicon containing GT3a NS3 protease; experiment: Resistant colony selection study, GT3a; settings: concentrations ≥ 100-fold over its EC50 value
[3] = test system: resistance-associated variants in GT 1b (Con-1); experiment: Activity against resistance-associated variants, GT 1b

## CC(C)(C)[C@@H]1NC(=O)O[C@@H]2CCC[C@H]2OC/C=C/C(F)(F)c2nc3ccccc3nc2O[C@@H]2C[C@@H](C(=O)N[C@]3(C(=O)NS(=O)(=O)C4(C)CC4)C[C@H]3C(F)F)N(C2)C1=O
[1]; GT1a variants that conferred resistance to other HCV protease inhibitors
  activity against common variants at NS3 amino acid positions 155 and 168: retained its activity
[1]; e.g. M28T, M28V, Q30D, Q30R, Y93C, Y93H, Y93N, L31V+Y93H, C316Y, M414T, Y448C, Y448H, S556G and S559G in GT 1a
  activity against NS5A inhibitor and NS5B inhibitor resistance-associated variants: potent activity
[2]
  colonies selected: very few colonies
[3]; GT1b variants that conferred resistance to other HCV protease inhibitors
  activity against common variants at NS3 amino acid positions 155 and 168: retained its activity
[3]; e.g. L28T, Y93H, S282T, C316Y, Y448H and S556G in GT 1b
  activity against NS5A inhibitor and NS5B inhibitor resistance-associated variants: potent activity
